Literature values, collected in article PMC6153800, “Structure-Based Drug Design and Characterization of Sulfonyl-Piperazine Benzothiazinone Inhibitors of DprE1 from Mycobacterium tuberculosis” (Antimicrobial Agents and Chemotherapy, 2018).

Chains of the proteins cited; added tags and fusions are not shown.
UniProt P9WJF1, whole entry C387S: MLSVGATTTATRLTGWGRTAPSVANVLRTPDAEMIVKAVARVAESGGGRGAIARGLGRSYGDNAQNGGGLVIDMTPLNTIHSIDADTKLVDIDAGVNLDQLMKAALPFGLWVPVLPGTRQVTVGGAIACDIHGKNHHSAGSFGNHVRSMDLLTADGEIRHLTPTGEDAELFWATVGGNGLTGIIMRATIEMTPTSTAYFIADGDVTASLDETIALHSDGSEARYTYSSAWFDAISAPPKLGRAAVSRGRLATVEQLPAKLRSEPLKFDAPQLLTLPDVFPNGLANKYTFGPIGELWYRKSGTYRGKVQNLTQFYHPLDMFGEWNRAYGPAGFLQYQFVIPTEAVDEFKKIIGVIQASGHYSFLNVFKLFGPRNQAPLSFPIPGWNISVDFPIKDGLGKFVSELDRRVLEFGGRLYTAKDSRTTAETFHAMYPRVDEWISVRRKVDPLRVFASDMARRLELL

Molecular target: BTZ-resistant M. tuberculosis C387S DprE1 (Mycobacterium tuberculosis, UniProt P9WJF1, C387S)
Conditions: read-out: IC50 C387S DprE1; BTZ-resistant C387S mutant enzyme; ref (1) Foo et al. 2016; cited from earlier work

For `COc1ccc(CNc2nc3cc(C(F)(F)F)ccc3nc2C(=O)O)cc1`, the IC50 is listed as 200 nM.
